# Non-standard residues stand in square brackets, D forms with d. Residues, ends and D or L forms follow the SMILES beside them.
# Key:
# [1] = system: CCD-34Lu lung fibroblasts; assay type: cell-based, human; conditions: stated for both cell lines
# Experimental: The peptide cytotoxicity against human cells was evaluated using CCD-34Lu-lung fibroblasts and A549-lung adenocarcinoma cells. Moreover, 6 × 10^3 cells in DMEM medium added with 10% FBS were seeded in 96-well sterile plates. After 24 h, cells were incubated with increasing concentrations of peptide (final concentrations of 5, 10, 25, 50, and 100 µM, with an additional concentration of 200 µM in CCD-34Lu) for 24 h at 37 °C (three replicates per condition). Cell viability was measured by removing the exhausted medium, adding 100 µL of DMEM and 20 µL of the MTS solution (Promega). Plates were incubated at 37 °C for 20 min until the complete conversion of the compound. The absorbance was measured at 492 nm using a microplate reader. Cell viability was calculated using the formula: Viability (%)=ODCecB−OD0/ODCtrl−OD0×100, where ODCecB is the OD in the presence of the peptide, ODCtrl is the OD of cells without the peptide, and OD0 is the background absorbance (wells with only medium and MTS compound). The experiment was performed at least twice.
# [2] = system: human red blood cells (hRBCs); assay type: cell-based
# Experimental: The peptide hemolytic activity was evaluated against human red blood cells (hRBCs) using the Haemolysis Assay Kit (HaemoScan, Groningen, The Netherlands), following the manufacturer’s instructions. 180 μL of hRBC solution were incubated 1 h at 37 °C with 20 μL of serially diluted L- and D-CecB Q53 peptides (final concentrations of 5, 10, 25, 50, 100, 200 µM) in triplicate. As hemolysis positive and negative controls, hRBC solutions incubated, respectively, with 0.2% Triton X and PBS, were followed in parallel. After centrifugation 10 min at 10,000× g, each supernatant was diluted 1:10 in the Assay Buffer and read at 450 nm with a microplate reader.
# Hemolysis was evaluated according to the following equation: Hemolysis (%)=ODCecB−OD0/ODCtrl−OD0×100, where ODCecB is the OD in the presence of the peptide, ODCtrl is the OD of treated controls (0.2% Triton X), and OD0 is the background absorbance. The experiment was performed at least twice.
smiles,measurement,setting,value
CC[C@@H](C)[C@@H](NC(=O)[C@@H](C)NC(=O)[C@@H](CCCCN)NC(=O)[C@@H](C)NC(=O)[C@@H](CO)NC(=O)CNC(=O)[C@@H](CC(C)C)NC(=O)[C@H](NC(=O)[C@@H](CCC(N)=O)NC(=O)[C@H](NC(=O)[C@@H](C)NC(=O)[C@H]1CCCN1C(=O)CNC(=O)[C@@H](C)NC(=O)[C@@H](CCCCN)NC(=O)[C@H](NC(=O)[C@H](NC(=O)CNC(=O)[C@@H](CC(=O)O)NC(=O)[C@@H](CCCNC(=N)N)NC(=O)[C@H](NC(=O)[C@@H](CC(N)=O)NC(=O)[C@@H](CCCNC(=N)N)NC(=O)CNC(=O)[C@@H](CCSC)NC(=O)[C@@H](CCCCN)NC(=O)[C@@H](CCC(=O)O)NC(=O)[C@H](NC(=O)[C@@H](CCCCN)NC(=O)[C@@H](CCCCN)NC(=O)[C@@H](Cc1ccccc1)NC(=O)[C@H](NC(=O)[C@@H](CCCCN)NC(=O)[C@@H](Cc1c[nH]c2ccccc12)NC(=O)[C@H](N)CCCNC(=N)N)[C@H](C)CC)[C@H](C)CC)[C@H](C)CC)[C@H](C)CC)C(C)C)[C@H](C)CC)C(C)C)C(N)=O [D-Q53 CecB] (H-[dR][dW][dK][dI][dF][dK][dK][dI][dE][dK][dM]G[dR][dN][dI][dR][dD]G[dI][dV][dK][dA]G[dP][dA][dI][dQ][dV][dL]G[dS][dA][dK][dA][dI]-NH2; N-terminus and C-terminus assumed),IC50 relative to MBC,[1],~ 15 fold
same,IC50 relative to MIC in 2 mM CaCl2,[1],~4 fold
same,MHC relative to MBC,[2],~ 23 fold
same,MHC relative to MIC in 2 mM CaCl2,[2]; most perturbing condition (2 mM CaCl2),~7 fold
